Results of unrelated studies side by side (data: NIAID ChemDB).

Shared fields: growth or infection tests; species: HIV-1; cells: MT-4; read-out: EC50

Rows are shuffled and stem from different studies.

smiles | strain | changes | method | result
O=c1[nH]cnc2c1ncn2[C@H]1CC[C@@H](CO)O1 | XM-M184V | RT-M184V | p24 | <6.4 µM
CC(C)=CCc1c(O)ccc(C2COc3cc(O)c(CC=C(C)C)c(O)c3C2=O)c1O | IIIB |  | MTT | >100 µg/mL
Cc1ccnc2c1NC(=O)c1cccnc1N2C1CC1 | RES056 |  | MTT | >15 µM
CC(C)=CCc1c(O)cc2c(c1O)C(=O)CC(c1ccccc1)O2 | IIIB |  | MTT | >100 µg/mL
Cc1cn([C@H]2C[C@H](N=[N+]=[N-])[C@@H](CO)O2)c(=O)[nH]c1=O | XM-AZT-resistant | RT-M41L D67N K70R T215Y K219Q | p24 | <23 µM
CC=CCN1C(C)C(=O)Nc2ccc(Cl)cc2S1(=O)=O |  |  | cytopathic effect / MTT | 0.7 µM
CC(C)=CCc1c(O)ccc2c1OC(c1ccccc1)CC2=O | IIIB |  | MTT | 100 µg/mL
CCOC(=O)C(=O)CC(=O)c1cccc(Oc2ccnc(Nc3ccc(C#N)cc3)n2)c1 | IIIB | F227L + V106A | MTT | >13 µM
C1CNCCNCC(C2CNCCNCCCNCCNC2)CNCCNC1 | IIIB |  | MTT | 0.3 µg/mL
Cc1cc(C)cc(C(=O)c2cccnc2Nc2ccc(C(N)=O)cc2)c1 | IIIB |  | MTT | >36.42 µM
CC(C)(C)NC(=O)[C@@H]1C[C@@H]2CCCC[C@@H]2CN1C[C@@H](O)[C@H](Cc1ccccc1)NC(=O)[C@H](CC(N)=O)NC(=O)c1ccc2ccccc2n1 | NL4-3 | PR-I84V | p24 | <0.05 µM
CC(C[C@H](NC(=O)COc1cccc2cnccc12)C(=O)N[C@@H](Cc1ccccc1)[C@H](O)C(=O)N1CSC[C@H]1C(=O)NC(C)(C)C)C(F)(F)F | IIIB |  | cytopathic effect / MTT | 0.13 µg/mL
CCN1C(=O)N(Cc2cccc(Cl)c2)S(=O)(=O)c2cscc21 | NDK |  | syncytia | 4.8 µM
COc1ccc(CCNc2nc(NC(=S)Nc3ccccc3Cl)nc(Oc3cc(=O)oc4ccccc34)n2)cc1OC | IIIB |  | MTT | >13.75 µg/mL
Nc1nccc2c1ncn2[C@@H]1C=C(CO)[C@@H](O)[C@H]1O | IIIB |  | cytopathic effect / trypan blue | >0.025 µg/mL
CN(C(=O)COc1cccc2cnccc12)[C@@H](CC(F)(F)F)C(=O)N[C@@H](Cc1ccccc1)[C@H](O)C(=O)N1CSC[C@H]1C(=O)NC(C)(C)C | IIIB |  | cytopathic effect / MTT | 0.25 µg/mL
CCN1C(=O)N(Cc2ccccc2)S(=O)(=O)c2cscc21 | HE |  | syncytia | 20.5 µM
COc1cc(O)ccc1/C=C/C(=O)c1ccc(O)cc1 | IIIB |  | cytopathic effect / MTT | >20 µg/mL
CCOC(=O)CNS(=O)(=O)c1cc(Cl)ccc1[N+](=O)[O-] |  |  | cytopathic effect / MTT | 73 µM
COc1ncccc1C(=O)c1cc(C)cc(C)c1 | IIIB |  | MTT | >7.34 µM
CC(C)=CCc1cc([C@H]2Oc3c(ccc(O)c3CC=C(C)C)C(=O)[C@@H]2O)ccc1O | IIIB |  | MTT | 1.17 µg/mL
COc1ccc(CCNc2nc(NC(=S)Nc3ccc(C)cc3)nc(Oc3cc(=O)oc4ccccc34)n2)cc1OC | IIIB |  | MTT | 8.33 µg/mL
CC(C)CN(C[C@@H](O)[C@H](Cc1ccccc1)NC(=O)[C@H](CC(N)=O)NC(=O)c1ccc2ccccc2n1)C(=O)NC(C)(C)C | NL4-3 | PR-L63P V82T | p24 | <0.2 µM
COc1ccc(CCNc2nc(NC(=O)Nc3ccc(C)cc3)nc(Oc3cc(=O)oc4ccccc34)n2)cc1OC | IIIB |  | MTT | >74.98 µg/mL
Cc1cc(C)cc(C(=O)c2cccnc2Oc2ccc(C(=O)O)cc2)c1 | IIIB |  | MTT | >150 µM
CC1C(=O)Nc2ccc(Cl)cc2S(=O)(=O)N1Cc1cc(Cl)cc(Cl)c1 |  |  | cytopathic effect / MTT | 1.5 µM
CC(=O)Oc1ccc(/C=C/C(=O)O[C@H](C(=O)O)[C@H](OC(=O)/C=C/c2ccc(OC(C)=O)c(OC(C)=O)c2)C(=O)O)cc1OC(C)=O | IIIB |  |  | 3.8 µM
COc1cc(O)ccc1CCCc1cc(O)c2c(c1CC=C(C)C)C=CC(C)(C)O2 | IIIB |  | cytopathic effect / MTT | >20 µg/mL
Cc1cc(C)cc(S(=O)(=O)c2c(C(=O)NC(C)C(N)=O)[nH]c3ccc(Cl)cc23)c1 |  | Y181C | MTT | 0.096 µM
Cc1cc(C)cc(C(=O)c2cccnc2Oc2ccc(C=O)cc2)c1 | IIIB |  | MTT | >33.65 µM
C1CNCCNCCCN(CCCN2CCCNCCNCCCNCC2)CCNC1 | NL4-3 | gp120 F145L N269E Q278H I288V N293D FNSTW364-368 deletion | p24 | >25 µg/mL
CC(C)=CCC1(CC=C(C)C)C=C([C@@H]2COc3c(ccc4c3C=CC(C)(C)O4)C2)C(O)=CC1=O | IIIB |  | MTT | >100 µg/mL
Cc1cn([C@@H]2C[C@H](CO)[C@@H](O)C2)c(=O)[nH]c1=O |  |  | cytopathic effect / MTT | >0.07 µg/mL
Cc1cc(C)cc(C(=O)c2cccnc2Oc2ccc(C#N)cc2)c1 | RES056 |  | MTT | >31.61 µM
Cc1ccnc2c1NC(=O)c1cccnc1N2C1CC1 | HE |  | syncytia | 0.02 µM
CC1(C)C=Cc2cc(-c3coc4cc(O)cc(O)c4c3=O)cc(O)c2O1 | IIIB |  | MTT | >100 µg/mL
Cc1cc(C)cc(C(=O)c2cccnc2Nc2cnccn2)c1 | IIIB |  | MTT | >240 µM
CC(C)=CCn1c(=O)n2c3c(cc(Cl)cc31)S(=O)(=O)NC(C)C2 |  |  | cytopathic effect / MTT | >91 µM
N#Cc1ccc(Nc2nccc(Oc3ccc(C(=O)CC(=O)C(=O)O)cc3)n2)cc1 | RES056 |  | MTT | >42 µM
C[C@@H]1C(=O)Nc2ccc(Cl)cc2S(=O)(=O)N1Cc1c(F)cccc1F |  |  | cytopathic effect / MTT | 0.2 µM
C1CNCCNCCCNCCNC1 | IIIB |  | MTT | 44 µg/mL
O=C1N(Cc2ccccc2)c2cscc2S(=O)(=O)N1Cc1ccccc1 | HE |  | syncytia | 8.3 µM
CCN(C(C)C(=O)O)S(=O)(=O)c1cc(Cl)ccc1N |  |  | cytopathic effect / MTT | >200 µM
CC(C)=CCc1c(O)cc2oc(-c3ccc(O)c(O)c3)c(O)c(=O)c2c1O | IIIB |  | cytopathic effect / MTT | >40 µg/mL
Cc1cn([C@H]2C[C@H](N=[N+]=[N-])[C@@H](CO)O2)c(=O)[nH]c1=O | IIIB |  | cytopathic effect / MTT | 0.024 µg/mL

A second listing of 5 rows from above:

| smiles | strain | changes | method | result |
|---|---|---|---|---|
| CC1(C)C=Cc2cc(-c3coc4cc(O)cc(O)c4c3=O)cc(O)c2O1 | IIIB |  | MTT | >100 µg/mL |
| Cc1cn([C@H]2C[C@H](N=[N+]=[N-])[C@@H](CO)O2)c(=O)[nH]c1=O | XM-AZT-resistant | RT-M41L D67N K70R T215Y K219Q | p24 | <23 µM |
| CCOC(=O)CNS(=O)(=O)c1cc(Cl)ccc1[N+](=O)[O-] |  |  | cytopathic effect / MTT | 73 µM |
| Cc1cc(C)cc(C(=O)c2cccnc2Oc2ccc(C#N)cc2)c1 | RES056 |  | MTT | >31.61 µM |
| CC(C)=CCc1cc([C@H]2Oc3c(ccc(O)c3CC=C(C)C)C(=O)[C@@H]2O)ccc1O | IIIB |  | MTT | 1.17 µg/mL |

ECn: concentration that inhibits the pathogen or its effect by n%. An empty or dashed field is not shown.